Measured values from several laboratories, pooled; numbers as filed in NIAID ChemDB.

All rows: whole-cell or culture tests; organism: HIV-2; cells: MT-4; measure: EC50

Blank or dashed fields: not listed here. ECn: concentration that inhibits the pathogen or its effect by n%. Rows are shuffled and stem from different studies.

| structure | strain | read by | result |
|---|---|---|---|
| CC1CCC(C(C)C)/C(=N/NC(=O)Nc2cccc(Cl)c2)C1 | ROD |  | >125 µg/mL |
| Oc1ccc(-c2nnc3sc(-c4cccnc4)nn23)c(Cl)c1Cl | ROD | MTT | >80.05 µg/mL |
| CC(C)(C)[Si](C)(C)O[C@H]1[C@H](n2ccc(=O)[nH]c2=O)O[C@H](CO)C1(O)C(N=[N+]=[N-])C(N)=O | ROD | cytopathic effect / trypan blue | >250 µM |
| Nc1cc(O)ccc1-c1nn2c(-c3ccc(O)c(Cl)c3Cl)nnc2s1 | ROD | MTT | >19.61 µg/mL |
| CCOC(=O)CSCC(=O)N1CCN(c2c([N+](=O)[O-])nc(CC)n2Cc2ccccc2)CC1 | ROD | syncytia | >10.64 µg/mL |
| Cc1cc(C#N)cc(C)c1Oc1nc(Nc2ccc(C#N)cc2)ncc1SCC(N)=O | ROD | MTT | >290 µM |
| C[C@H](CS)C(=O)N1CCC[C@@H]1c1nc2ccccc2s1 | ROD | MTT | >15.8 µg/mL |
| CCc1nc([N+](=O)[O-])c(N2CCN(C(=O)CCC(=O)OC)CC2)n1Cc1ccccc1 | ROD | syncytia | >38.1 µg/mL |
| CC(C)[C@H](NC(=O)[C@H](NCc1ccccc1)[C@H](O)[C@H](Cc1ccccc1)NC(=O)[C@@H](NC(=O)OCc1ccccc1)C(C)(C)C)C(=O)NCc1ccccc1 | EHO | p24 | 0.714 µM |
| Cc1cc(C#N)cc(C)c1Oc1nc(Nc2ccc(C#N)cc2)ncc1SCC(=O)NCCN1CCOCC1 | ROD | MTT | >21.9 µM |
| Cc1cn([C@@H]2O[C@H](CO[Si](C)(C)C(C)(C)C)C3(O[C@H]3C(N)=O)[C@H]2O[Si](C)(C)C(C)(C)C)c(=O)[nH]c1=O | ROD | cytopathic effect / trypan blue | >2 µM |
| CC(C)[C@H](NC(=O)OCc1ccccc1)C(=O)N[C@@H](Cc1ccccc1)[C@@H](O)[C@@H](NCc1ccc(Br)cc1)C(=O)N[C@H](C(=O)NCc1nc2ccccc2[nH]1)C(C)C | EHO | p24 | 0.68 µM |
| C/C(=N\Nc1nc(-c2ccc(C#N)cc2)cs1)c1ccc2c(c1)OCO2 | ROD | MTT | >68.28 µM |
| Cc1[nH]c(=S)n(Nc2cccc(Cl)c2)c1C(=O)O | ROD | cytopathic effect / MTT | >266 µM |
| CC(C)[C@H](NC(=O)c1ccccc1)C(=O)N/N=C/c1c(F)cccc1Cl | ROD | MTT | >332 µM |
| Cc1cc(C#N)cc(C)c1Oc1nc(Nc2ccc(C#N)cc2)ncc1SCC(=O)NCCN1CCN(C(=O)OC(C)(C)C)CC1 | ROD | MTT | >21.5 µM |
| Cc1ccc(Nn2c(-c3ccccc3)c(C)[nH]c2=S)cc1Cl | ROD | cytopathic effect / MTT | >44.29 µM |
| CCc1nc([N+](=O)[O-])c(N2CCN(C(=O)CCC(N)=O)CC2)n1Cc1ccccc1 | ROD | syncytia | >93.7 µg/mL |
| Nn1c(-c2ccc(O)c(Br)c2)n[nH]c1=S | ROD | MTT | >75.4 µg/mL |
| CCOC(=O)c1c([C@@H]2C[C@H]2c2ccccc2)n(C)c2ccc(O)cc12 | ROD | MTT | 5.4 µM |
| Cc1[nH]c(=S)n(Nc2cccc(F)c2)c1-c1ccccc1 | ROD | cytopathic effect / MTT | >108 µM |
| CCc1nc([N+](=O)[O-])c(N2CCN(C(=O)c3ccc(OC)cc3)CC2)n1Cc1ccccc1 | ROD | syncytia | >71.8 µg/mL |
| C/C(=N\Nc1nc(-c2ccc([N+](=O)[O-])cc2)cs1)c1ccc(-c2ccc(Br)cc2)cc1 | ROD | MTT | >66.15 µM |
| C[C@H](CS)C(=O)N1CCC[C@@H]1c1nc2ncncc2[nH]1 | ROD | MTT | >59.05 µg/mL |
| COc1cccc(Nn2cnc(C)c2-c2ccccc2)c1 | ROD | cytopathic effect / MTT | >34.44 µM |
| Cc1cc(C#N)cc(C)c1Oc1nc(Nc2ccc(C#N)cc2)ncc1SCC(=O)N1CCN(C(=O)OC(C)(C)C)CC1 | ROD | MTT | >208 µM |
| Nn1c(-c2ccc(Cl)c(Cl)c2)n[nH]c1=S | ROD | MTT | >72.83 µg/mL |
| COc1ccc(NC(=S)N/N=C2\CC(C)CCC2C(C)C)cc1 | ROD |  | >84.6 µg/mL |
| COC(=O)c1[nH]c(=S)n(Nc2cccc(Cl)c2)c1C | ROD | cytopathic effect / MTT | >48.8 µM |
| Cc1ccc(/C=N/Nc2nc(-c3ccc(Br)cc3)cs2)cc1 | ROD | MTT | >125 µM |
| CC(C)[C@H](NC(=O)OCc1ccccc1)C(=O)N[C@@H](Cc1ccccc1)[C@@H](O)[C@@H](NCc1ccccc1)C(=O)N[C@H](C(=O)NCc1nc2ccccc2[nH]1)C(C)C | EHO | p24 | 0.805 µM |
| Cc1ccc(NC(=S)N/N=C2\CC(C)CCC2C(C)C)cc1 | ROD |  | >2.6 µg/mL |
| C[C@H](CSCC(=O)O)C(=O)N1CCC[C@@H]1C(=O)O | ROD | MTT | >125 µg/mL |
| CC(C)(C)[Si](C)(C)OC[C@H]1O[C@@H](n2ccc(=O)[nH]c2=O)[C@H](O[Si](C)(C)C(C)(C)C)/C1=C/CO | ROD | cytopathic effect / trypan blue | >2 µM |
| CCOC(=O)c1c(CSc2ccccc2)n(C)c2cc(Br)c(O)c(CN(C)C)c12 | ROD | MTT | >8.4 µM |
| Brc1ccc(-c2csc(N/N=C/c3ccncc3)n2)cc1 | ROD | MTT | >125 µM |
| Clc1ccc(-c2nnc3n2N=C(c2ccccc2)CS3)cc1Cl | ROD | MTT | >1.97 µg/mL |
| O=[N+]([O-])c1ccc(/C=N/Nc2nc(-c3ccc([N+](=O)[O-])cc3)cs2)cc1 | ROD | MTT | >73.58 µM |
| CC(C)[C@@H](NC(=O)c1ccccc1)C(=O)N/N=C/c1c(F)cccc1Cl | ROD | MTT | >332 µM |
| Nc1ccc(-c2nn3c(-c4ccc(Cl)c(Cl)c4)nnc3s2)cc1 | ROD | MTT | >19.61 µg/mL |
| CCc1nc([N+](=O)[O-])c(N2CCN(C(=O)c3ccc(F)cc3)CC2)n1Cc1ccccc1 | ROD | syncytia | >63.2 µg/mL |
| Cc1cc(C#N)cc(C)c1Oc1nc(Nc2ccc(C#N)cc2)ncc1SCC(=O)Nc1ccc(S(C)(=O)=O)cc1 | ROD | MTT | >214 µM |
| CC(C)(C)[Si](C)(C)OC[C@H]1O[C@@H](n2ccc(=O)[nH]c2=O)[C@H](O[Si](C)(C)C(C)(C)C)[C@@]12O[C@H]2C(N)=O | ROD | cytopathic effect / trypan blue | >10 µM |
| N#Cc1ccc(-c2csc(N/N=C/c3ccccn3)n2)cc1 | ROD | MTT | >1.71 µM |
| Cc1cc(C#N)cc(C)c1Oc1nc(Nc2ccc(C#N)cc2)ncc1SCC(=O)NCC1CCCO1 | ROD | MTT | >25.4 µM |
| Oc1ccc(-c2nnc3sc(-c4cccs4)nn23)c(Cl)c1Cl | ROD | MTT | >82.7 µg/mL |
| COc1ccc(/C=N/Nc2nc(-c3ccc(Cl)cc3)cs2)cc1 | ROD | MTT | >125 µM |
| CCc1nc([N+](=O)[O-])c(N2CCN(C(C)=O)CC2)n1Cc1ccccc1 | ROD | syncytia | >63.1 µg/mL |
| CC(C)[C@H](NC(=O)OCc1ccccc1)C(=O)N[C@@H](Cc1ccccc1)[C@@H](O)[C@@H](NCc1ccccc1)C(=O)N[C@H](C(=O)NCc1ccccc1)C(C)C | EHO | p24 | >3 µM |
| C[C@H](CSCCN1C(=O)c2ccccc2C1=O)C(=O)N1CCC[C@@H]1C(=O)O | ROD | MTT | >22.43 µg/mL |
| CC(C)[C@H](NC(=O)c1ccccc1)C(=O)N/N=C/c1c(F)cccc1F | ROD | MTT | >348 µM |

The first 4 rows once more:

structure	strain	read by	result
CC1CCC(C(C)C)/C(=N/NC(=O)Nc2cccc(Cl)c2)C1	ROD		>125 µg/mL
Oc1ccc(-c2nnc3sc(-c4cccnc4)nn23)c(Cl)c1Cl	ROD	MTT	>80.05 µg/mL
CC(C)(C)[Si](C)(C)O[C@H]1[C@H](n2ccc(=O)[nH]c2=O)O[C@H](CO)C1(O)C(N=[N+]=[N-])C(N)=O	ROD	cytopathic effect / trypan blue	>250 µM
Nc1cc(O)ccc1-c1nn2c(-c3ccc(O)c(Cl)c3Cl)nnc2s1	ROD	MTT	>19.61 µg/mL